The text below walks through data of article doi:10.1101/2023.10.03.560722, “Drug Discovery in Low Data Regimes: Leveraging a Computational Pipeline for the Discovery of Novel SARS-CoV-2 Nsp14-MTase Inhibitors” (bioRxiv, 2024).

Where a SMILES comes first, the peptide text is derived from it. [ ]: non-standard residue; d: D form. The star is where a group is joined. Ac5c = NC1(C(=O)O)CCCC1; Cbz = O=C(OCc1ccccc1)*

A short description of the series: quenching effect observed in the high-throughput radioactivity-based screen.
For the compound `NC(CCCNc1nc(O)c(-c2ccccc2)c(=O)[nH]1)C(=O)O` (stereo not drawn) [NSC132916], the Quenching effect % turned out to be 3%.
Then `O=C(O)/C=C\C(=O)NCC1CCC(CNC(=O)/C=C\C(=O)O)CC1` (stereo not drawn) [NSC137050], with 3%; and `O=C(CCCCn1ccc(=O)[nH]c1=O)Nc1ccc(C(=O)O)c(O)c1` [NSC92432], with 8%; and `CC(CCc1ccc2c(c1)OCO2)NCC(O)c1ccc(O)c(C(N)=O)c1` (stereo not drawn) [NSC313453], with 5%.
Turning to `COc1cc(N=Nc2ccccc2C(=O)O)cc(/C=N/NNC(N)=S)c1O` [NSC630814], the Quenching effect % was 75%.
The value for `O=P(O)(O)OC1OC(n2cnc3c(NCc4ccc(F)cc4)ncnc32)C(O)C1O` (stereo not drawn) [NSC330685] was 1%; that for `O=c1cc(-c2ccc(O)cc2)oc2c(O)c(O)c(O)c(O)c12` [NSC76988] was 8%.
The value for `O=C(O)c1cc(=O)n(CCCCCCn2c(=O)cc(C(=O)O)[nH]c2=O)c(=O)[nH]1` [NSC232469] was −4%; that for `Nc1nc2nn(-c3ccc(C(=O)NC(CCC(=O)O)C(=O)O)cc3)nc2c(=O)[nH]1` (stereo not drawn) [NSC44037] was 8%.
Then `Cn1c(=O)c2c(ncn2CCCNCC(O)c2ccc(O)c(CO)c2)n(C)c1=O` (stereo not drawn) [NSC293892], with −5%; and `O=C(CN1CCOCC1)C(O)C(O)C(O)CO` (stereo not drawn) [NSC4348], with 9%.
With `O=C(O)c1nc(N=Nc2ccc(S(=O)(=O)O)cc2)[nH]c1C(=O)O` [NSC4624], the Quenching effect % came out at 49%.
Then `Nc1ncnc2c1ncn2[C@@H]1O[C@H](CSCc2ccc(Cl)cc2)[C@@H](O)[C@H]1O` [NSC620333], with 23%; and `O=C(O)c1ccc(Nc2nc3ccccc3nc2C(=O)O)cc1` [NSC670682], with 43%.
Regarding `NC(CCC(=O)NC(CSCc1ccc(F)cc1)C(=O)NCC(=O)O)C(=O)O` (stereo not drawn) [NSC131119], the Quenching effect % was determined as 14%.
Regarding `O=C1C2C3C=CC(O3)C2C(=O)N1/N=C/C(O)C(O)C(O)C(O)CO` (stereo not drawn) [NSC60360], the Quenching effect % was 10%.
Then `NC(CSCCSCCSCC(N)C(=O)O)C(=O)O` (stereo not drawn) [NSC400718], with 23%; and `NC(CCCC(N)P(=O)(O)c1ccccc1)P(=O)(O)c1ccccc1` (stereo not drawn) [NSC655184], with 5%.
The value for `O=c1ccn(C2OC(C(O)CO)C(O)C2O)c(=O)[nH]1` (stereo not drawn) [NSC613624] was 6%.
Then `Nc1ncnc2c1ncn2C1OC(CO)C(NC(=O)C(N)Cc2ccccc2)C1O` (stereo not drawn) [NSC114010], with −2%; and `NS(=O)(=O)c1ccc(NC2OCC(O)C(O)C2O)cc1` (stereo not drawn) [NSC158437], with 15%; and `OCCNc1ncnc2c1ncn2[C@@H]1O[C@H](CO)[C@@H](O)[C@H]1O` [NSC54251], with −1%.
As to `O=C(O)CNC(=O)C1(NC(=O)CNC(=O)OCc2ccccc2)CCCC1` [NSC80136] (Cbz-Gly-[Ac5c]-Gly-OH), the Quenching effect % is given as −3%.
Take `O=C(NNCNNC(=O)c1ccncc1)c1ccncc1` [NSC39302]: the Quenching effect % is reported as 12%.
Regarding `Nc1ncnc2c1ncn2C1OC(C(=O)NCC(=O)O)C(O)C1O` (stereo not drawn) [NSC163444], the Quenching effect % worked out at 2%.
Then `O=C(O)c1ccc(C(=O)c2ccc(C(=O)c3ccc(C(=O)O)cc3)cc2)cc1` [NSC2269], with 1%; and `CN(CC(O)C(O)C(O)C(O)CO)CN1C(=O)C(=O)c2ccccc21` (stereo not drawn) [NSC99790], with 33%; and `O=P(O)(O)OC[C@H]1O[C@@H](n2cnc3c(NCc4ccccc4)ncnc32)[C@H](O)[C@@H]1O` [NSC255523], with −7%.
For `O=C1C=C(O)C(=C/C=C/C=C/c2c(O)cc(O)cc2O)C(O)=C1` [NSC77131], the Quenching effect % was determined as 52%.
The value for `O=C(O)CCC(=O)NCC1CCCC(CNC(=O)CCC(=O)O)C1` (stereo not drawn) [NSC317609] was 8%.
Then `OC1COC(n2cnc3c(=S)nc[nH]c32)C(O)C1O` (stereo not drawn) [NSC107661], with −2%; and `O=S(=O)(O)c1cc(Cl)cc(N=Nc2ccc(O)cc2O)c1O` [NSC102798], with 61%.
The value for `O=S(=O)(O)c1ccc(N=Nc2c(O)ccc3n[nH]nc23)cc1` [NSC400937] was 70%.
Regarding `O=C1NC(=O)C(C(=O)C(=O)Nc2cccc(C(F)(F)F)c2)C(=O)N1` [NSC646375], the Quenching effect % is given as 1%.
`OCC(O)C(O)C(O)C(O)c1nc2ccccc2s1` (stereo not drawn) [NSC34443]: the Quenching effect % is given as −7%.
The value for `O=C(O)C(Cc1ccc(O)cc1)NC(c1ccccc1)P(=O)(O)O` (stereo not drawn) [NSC377438] was 17%; that for `CC(C)=CCNc1ncnc2c1ncn2[C@@H]1O[C@H](COP(=O)(O)O)[C@@H](O)[C@H]1O` [NSC268226] was 3%; that for `Nc1ncnc2c1ncn2[C@H]1C[C@H](O)[C@@H](COP(=O)(O)O)O1` [NSC77680] was 21%.
Then `O=C(N/N=C/[C@H](O)[C@H]1OC(=O)[C@@H](O)[C@H]1O)c1ccncc1` [NSC27605], with 2%.
